# Results deposited as PubChem BioAssay AID1259414 (Drosophila RNAi Screening Center, 2018)
# Test: 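Fly genes that alter Wolbachia amount inside host cells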 (primary screen)
# Cell system: Drosophila JW18 cells infected with Wolbachia
# Reagent: long dsRNA against Drosophila genes, 0.25 µg dsRNA per well of a 384-well plate
# Timing: 5 days
# Challenge: cells persistently infected with Wolbachia before knock-down; no added drug
# Detection: 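Automated imaging of bacterial rRNA staining divided by host cell count, reported as plate-normalised robust z-score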
# Reading the numbers: Wolbachia per cell robust z: higher = more Wolbachia per host cell than the plate typical
# Call rule: 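Active if absolute robust z reaches 1.5 in two or more of three replicates, leaving out multi- or no-target dsRNAs, genes unexpressed in JW18 and A1 wells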
# In all, the deposit lists about 24,000 reagents; shown is an unselected part of those with a known target gene and a result. In the full data, about 1,210 (5%) were called active. 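Inactive calls also include excluded dsRNAs with several or no targets, genes unexpressed in JW18, and well A1, regardless of score.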 The numbers tell different reagents against one gene apart. A plus sign joins genes that one reagent is predicted to hit.
gene,reagent no.,"Wolbachia per cell robust z, rep 1","Wolbachia per cell robust z, rep 2","Wolbachia per cell robust z, rep 3",Call
Rbp9,1,0.213,0.412,0.685,inactive
Rbp9,2,-0.405,-0.873,0.989,inactive
Rbp9,3,-0.535,0.0985,-0.891,inactive
PGRP-SB2,1,-0.179,-1.26,0.618,inactive
orb,1,-3.39,-0.252,-0.583,inactive
Unr,1,0.265,-1.02,0.828,inactive
Unr,2,0.656,1.13,-0.236,inactive
Unr,3,-1.25,1.21,0.829,inactive
Unr,4,-2.56,-0.757,-1.77,active
Boot,1,-1.18,-2.81,-0.832,inactive
CG9288 + CG42375,1,0.114,0.85,-0.555,inactive
Mnn1,1,-0.714,-1.77,-0.327,inactive
Cp7Fa,1,-0.514,-2.78,-0.849,inactive
Cp7Fa,2,-0.576,0.719,-0.729,inactive
Cp7Fa,3,0.373,-0.888,-0.295,inactive
Cyp6d2,1,0.195,-0.0296,-0.399,inactive
Cyp6d2,2,1.46,0.358,0.346,inactive
Dbp73D,1,-0.113,-1.13,-2.32,inactive
CG12895,1,-0.975,0.0417,-0.108,inactive
CG12895,2,-0.319,-0.0584,0.288,inactive
Tbca,1,0.699,1.48,0.656,inactive
Tbca,2,-1.86,-0.722,-0.888,inactive
CG5790,1,-0.0926,-4.69,0.842,inactive
CG5790,2,-0.11,-0.702,-0.304,inactive
CG30087,1,0.84,0.58,-0.612,inactive
CG30087,2,-0.378,-0.502,1.45,inactive
CG12645,1,0.857,0.52,0.295,inactive
CG12645,2,-0.111,-1.08,-0.0316,inactive
CG17999,1,-1.48,0.349,0.355,inactive
spn-E,1,0.572,0.419,1.26,inactive
spn-E,2,-0.542,-0.0543,-1.76,inactive
CG32755,1,0.641,-0.531,0.989,inactive
CG32755,2,0.828,0.546,-8.05,inactive
Psi,1,1.54,0.89,1.42,inactive
Psi,2,0.71,-1.54,-0.383,inactive
Psi,3,-0.092,-0.36,0.306,inactive
mRpL28,1,-0.303,-0.666,-2.69,inactive
Mat1,1,0.472,-1.56,1.1,inactive
Mat1,2,0.0744,0.582,-0.029,inactive
CG1143,1,1.05,0.243,0.0175,inactive
CG11597,1,-0.207,0.326,-2.2,inactive
CG11597,2,-2.49,-0.124,0.329,inactive
sbb,1,0.527,0.665,1.04,inactive
sbb,2,0.957,0.302,0.789,inactive
sbb,3,0.507,1.08,0.531,inactive
sbb,4,0.264,-0.531,-0.39,inactive
CG7458,1,0.595,0.852,0.541,inactive
CG7458,2,-1.53,-1.31,0.443,inactive
CRIF,1,-2.72,0.887,-0.453,inactive
CRIF,2,-0.0724,0.806,-0.301,inactive
Cpr49Ag,1,0.928,0.499,0.43,inactive
Cpr49Ag,2,-0.0131,-0.713,1.44,inactive
Nmdmc,1,-2.47,0.822,0.3,inactive
Nmdmc,2,-0.476,0.461,-0.837,inactive
CG13630,1,-3.65,0.213,-0.69,inactive
CG43121,1,-7.38,0.178,0.399,inactive
CR33221,1,0.444,1.34,0.628,inactive
Cp110,1,1.2,0.274,1.21,inactive
Cp110,2,-2.04,-0.549,0.362,inactive
CG7639,1,0.198,-3.23,-0.518,inactive
Dip-B,1,0.411,0.602,0.774,inactive
Dip-B,2,-1.13,-0.315,2.37,inactive
CG4781,1,0.439,0.166,0.0838,inactive
CG33309,1,0.494,-0.889,-2.01,inactive
CG3246,1,0.211,0.787,-0.0854,inactive
Jig,1,-1.39,-0.505,-0.504,inactive
C15,1,0.725,0.72,0.312,inactive
Fsn + CG17059,1,1.69,1.6,0.56,inactive

Hits, of those listed so far:
gene,reagent no.,"Wolbachia per cell robust z, rep 1","Wolbachia per cell robust z, rep 2","Wolbachia per cell robust z, rep 3",Call
Unr,4,-2.56,-0.757,-1.77,active
